Measurements published in patent US20160052997A1.

Tests used:
[1] = target: HA of A/Vietnam/1203/04 (H5N1) virus (Influenza A virus A/Vietnam/1203/04 (H5N1)); assay: cell-based or functional assay
[2] = target: HA of A/Shanghai/1/2013 (H7N9) virus (Influenza A virus A/Shanghai/1/2013 (H7N9)); assay: cell-based or functional assay

Substance: CT-P27
- EC50, microneutralization test [1]: 7.29 µg/mL
- IC50, in vitro neutralization assay, wild type virus [2]: 13.1 µg/mL
